Results taken from publication PMC10302633 (Marine Drugs, 2023).
Only a part of the results on these compounds is given; other tests are left out.

Chains of the proteins cited; added tags and fusions are not shown. Residues count along the entry.
UniProt Q05941, 23-502 limits assumed: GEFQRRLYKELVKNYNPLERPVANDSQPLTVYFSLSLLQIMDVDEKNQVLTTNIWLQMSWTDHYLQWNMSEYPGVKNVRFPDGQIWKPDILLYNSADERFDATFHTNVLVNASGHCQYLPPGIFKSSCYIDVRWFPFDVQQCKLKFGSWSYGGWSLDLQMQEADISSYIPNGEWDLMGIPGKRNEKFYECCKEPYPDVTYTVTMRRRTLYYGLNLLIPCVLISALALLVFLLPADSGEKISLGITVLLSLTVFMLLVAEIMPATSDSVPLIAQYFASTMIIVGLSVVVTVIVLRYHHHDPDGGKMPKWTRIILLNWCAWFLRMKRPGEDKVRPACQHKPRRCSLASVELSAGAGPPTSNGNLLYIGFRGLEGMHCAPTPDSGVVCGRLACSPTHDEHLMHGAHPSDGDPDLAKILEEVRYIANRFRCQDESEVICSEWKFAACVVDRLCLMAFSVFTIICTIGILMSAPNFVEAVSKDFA
UniProt P36544, 23-502 limits assumed: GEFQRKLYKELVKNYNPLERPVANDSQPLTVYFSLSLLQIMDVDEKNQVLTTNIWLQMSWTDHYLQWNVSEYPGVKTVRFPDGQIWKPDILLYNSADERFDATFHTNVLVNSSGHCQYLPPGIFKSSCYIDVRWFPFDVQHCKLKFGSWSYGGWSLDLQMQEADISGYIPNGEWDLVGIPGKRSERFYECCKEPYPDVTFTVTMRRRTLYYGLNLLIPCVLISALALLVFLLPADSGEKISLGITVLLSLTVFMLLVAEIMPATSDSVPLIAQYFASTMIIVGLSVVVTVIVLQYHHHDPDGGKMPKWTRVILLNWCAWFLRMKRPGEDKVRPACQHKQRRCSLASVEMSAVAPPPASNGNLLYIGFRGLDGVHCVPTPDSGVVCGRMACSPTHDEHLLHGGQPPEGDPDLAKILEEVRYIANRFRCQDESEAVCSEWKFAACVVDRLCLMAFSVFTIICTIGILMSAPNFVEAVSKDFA
UniProt P04757, 26-499 limits assumed: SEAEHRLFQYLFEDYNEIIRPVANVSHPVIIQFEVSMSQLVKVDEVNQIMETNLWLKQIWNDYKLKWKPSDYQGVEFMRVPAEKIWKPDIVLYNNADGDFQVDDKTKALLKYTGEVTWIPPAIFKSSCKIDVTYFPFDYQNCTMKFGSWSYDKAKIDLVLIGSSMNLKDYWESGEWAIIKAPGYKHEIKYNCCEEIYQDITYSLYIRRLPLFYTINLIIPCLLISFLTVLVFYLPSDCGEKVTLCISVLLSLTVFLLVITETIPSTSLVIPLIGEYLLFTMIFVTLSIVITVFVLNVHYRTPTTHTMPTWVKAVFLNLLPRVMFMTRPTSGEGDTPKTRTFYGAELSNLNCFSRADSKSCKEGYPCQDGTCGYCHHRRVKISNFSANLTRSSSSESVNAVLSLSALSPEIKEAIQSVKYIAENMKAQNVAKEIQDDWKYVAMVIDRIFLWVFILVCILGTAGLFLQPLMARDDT
UniProt P04757, whole entry, looked up: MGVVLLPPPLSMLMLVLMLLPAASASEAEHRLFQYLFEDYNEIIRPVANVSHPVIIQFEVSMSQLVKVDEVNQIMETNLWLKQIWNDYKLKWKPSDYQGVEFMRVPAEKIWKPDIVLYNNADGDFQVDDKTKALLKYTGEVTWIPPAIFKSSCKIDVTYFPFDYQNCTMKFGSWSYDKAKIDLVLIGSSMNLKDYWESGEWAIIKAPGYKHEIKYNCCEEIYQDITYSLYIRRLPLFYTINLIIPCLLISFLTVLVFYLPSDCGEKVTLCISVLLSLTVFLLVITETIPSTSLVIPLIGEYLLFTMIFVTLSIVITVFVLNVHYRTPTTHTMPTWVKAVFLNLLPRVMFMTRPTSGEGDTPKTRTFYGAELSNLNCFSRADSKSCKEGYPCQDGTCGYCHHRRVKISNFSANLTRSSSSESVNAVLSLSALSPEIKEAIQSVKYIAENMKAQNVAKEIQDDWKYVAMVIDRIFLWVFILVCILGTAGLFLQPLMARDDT
UniProt P12390, 25-500 limits assumed: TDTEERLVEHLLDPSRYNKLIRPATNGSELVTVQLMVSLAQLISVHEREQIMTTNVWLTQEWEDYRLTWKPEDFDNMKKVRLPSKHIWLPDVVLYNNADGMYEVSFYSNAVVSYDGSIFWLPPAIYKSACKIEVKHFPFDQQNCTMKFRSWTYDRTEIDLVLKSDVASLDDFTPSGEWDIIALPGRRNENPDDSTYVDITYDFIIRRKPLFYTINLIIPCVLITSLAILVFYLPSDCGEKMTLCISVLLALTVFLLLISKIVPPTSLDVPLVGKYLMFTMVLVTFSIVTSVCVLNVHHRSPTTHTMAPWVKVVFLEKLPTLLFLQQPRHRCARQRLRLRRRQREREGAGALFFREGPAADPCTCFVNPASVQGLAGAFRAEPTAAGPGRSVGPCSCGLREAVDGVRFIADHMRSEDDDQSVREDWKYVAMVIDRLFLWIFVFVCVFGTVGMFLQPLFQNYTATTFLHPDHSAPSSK
UniProt P09483, 31-630 limits assumed: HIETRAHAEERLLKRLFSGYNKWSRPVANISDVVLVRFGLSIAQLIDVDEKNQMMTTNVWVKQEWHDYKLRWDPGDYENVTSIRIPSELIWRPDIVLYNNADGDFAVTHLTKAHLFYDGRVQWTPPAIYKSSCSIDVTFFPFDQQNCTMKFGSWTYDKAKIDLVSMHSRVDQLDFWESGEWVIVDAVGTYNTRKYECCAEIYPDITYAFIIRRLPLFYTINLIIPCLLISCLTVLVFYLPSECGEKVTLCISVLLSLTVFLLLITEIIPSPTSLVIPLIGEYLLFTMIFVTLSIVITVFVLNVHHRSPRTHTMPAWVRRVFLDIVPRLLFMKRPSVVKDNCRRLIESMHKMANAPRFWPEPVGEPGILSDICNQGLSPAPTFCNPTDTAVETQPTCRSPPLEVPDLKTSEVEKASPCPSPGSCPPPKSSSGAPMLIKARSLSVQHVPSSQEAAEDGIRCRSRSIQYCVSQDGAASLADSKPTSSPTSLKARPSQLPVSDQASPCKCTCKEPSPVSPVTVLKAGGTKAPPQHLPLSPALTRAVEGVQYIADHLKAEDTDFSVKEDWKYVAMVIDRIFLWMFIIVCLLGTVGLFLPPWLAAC
UniProt P12392, 21-495 limits assumed: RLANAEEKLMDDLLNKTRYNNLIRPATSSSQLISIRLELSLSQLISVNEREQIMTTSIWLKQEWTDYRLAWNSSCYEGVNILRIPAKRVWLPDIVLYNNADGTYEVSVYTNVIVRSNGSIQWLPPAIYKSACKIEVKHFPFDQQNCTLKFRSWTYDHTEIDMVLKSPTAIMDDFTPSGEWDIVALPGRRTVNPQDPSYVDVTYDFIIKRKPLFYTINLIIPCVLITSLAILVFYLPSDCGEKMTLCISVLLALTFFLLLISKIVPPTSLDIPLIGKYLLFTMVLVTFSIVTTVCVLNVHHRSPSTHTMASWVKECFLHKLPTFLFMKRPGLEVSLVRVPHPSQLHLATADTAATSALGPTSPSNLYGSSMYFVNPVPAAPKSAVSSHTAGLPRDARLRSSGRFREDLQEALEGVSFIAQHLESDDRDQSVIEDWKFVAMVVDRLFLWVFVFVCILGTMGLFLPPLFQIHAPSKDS
UniProt P12392, whole entry, looked up: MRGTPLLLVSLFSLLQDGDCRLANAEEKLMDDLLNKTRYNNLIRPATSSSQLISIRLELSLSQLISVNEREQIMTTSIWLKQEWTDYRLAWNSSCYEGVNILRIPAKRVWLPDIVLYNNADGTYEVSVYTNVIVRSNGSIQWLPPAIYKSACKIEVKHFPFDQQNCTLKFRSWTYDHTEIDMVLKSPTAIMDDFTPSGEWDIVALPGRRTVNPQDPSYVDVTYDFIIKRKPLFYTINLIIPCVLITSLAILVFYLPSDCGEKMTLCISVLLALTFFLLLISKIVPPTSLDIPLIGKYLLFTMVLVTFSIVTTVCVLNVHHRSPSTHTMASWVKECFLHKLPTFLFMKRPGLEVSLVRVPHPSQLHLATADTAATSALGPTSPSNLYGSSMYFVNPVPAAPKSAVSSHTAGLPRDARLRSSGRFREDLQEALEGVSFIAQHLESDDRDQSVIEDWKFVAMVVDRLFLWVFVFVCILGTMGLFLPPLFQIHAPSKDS
UniProt P12389, 28-511 limits assumed: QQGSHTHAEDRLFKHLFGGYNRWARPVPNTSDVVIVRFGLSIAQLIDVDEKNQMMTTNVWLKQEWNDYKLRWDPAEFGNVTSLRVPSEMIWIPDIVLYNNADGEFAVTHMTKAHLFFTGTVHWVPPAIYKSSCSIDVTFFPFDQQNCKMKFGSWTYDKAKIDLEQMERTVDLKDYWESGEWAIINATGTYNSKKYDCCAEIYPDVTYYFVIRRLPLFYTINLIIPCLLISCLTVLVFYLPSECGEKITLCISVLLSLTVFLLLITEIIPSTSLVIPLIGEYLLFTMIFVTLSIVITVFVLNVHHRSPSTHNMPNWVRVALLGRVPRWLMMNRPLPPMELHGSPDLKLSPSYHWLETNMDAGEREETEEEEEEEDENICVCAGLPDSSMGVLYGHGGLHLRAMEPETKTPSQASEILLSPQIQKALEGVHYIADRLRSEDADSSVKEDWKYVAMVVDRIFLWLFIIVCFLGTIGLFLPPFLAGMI
UniProt P43143, whole entry M241L/F253L/V303I/V320I/I327V/A333T/K339T, looked up: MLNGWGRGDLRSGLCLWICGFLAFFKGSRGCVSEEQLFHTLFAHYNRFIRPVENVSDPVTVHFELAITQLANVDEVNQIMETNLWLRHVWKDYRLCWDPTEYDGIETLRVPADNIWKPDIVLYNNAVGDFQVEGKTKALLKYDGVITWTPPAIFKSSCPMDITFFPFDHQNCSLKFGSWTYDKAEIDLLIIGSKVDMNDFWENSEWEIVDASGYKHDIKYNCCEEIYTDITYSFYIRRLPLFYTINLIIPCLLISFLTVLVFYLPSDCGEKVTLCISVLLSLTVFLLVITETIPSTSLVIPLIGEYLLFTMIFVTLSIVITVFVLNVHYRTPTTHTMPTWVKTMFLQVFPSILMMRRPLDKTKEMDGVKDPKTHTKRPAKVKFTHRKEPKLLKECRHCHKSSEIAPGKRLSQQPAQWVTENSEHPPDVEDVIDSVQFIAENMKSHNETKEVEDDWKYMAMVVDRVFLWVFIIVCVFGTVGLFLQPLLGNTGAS

What was measured:
rat α7 nAChRs = rat α7 nAChRs (Rattus norvegicus, UniProt Q05941); test: Two-electrode voltage clamp, inhibition of ACh-evoked currents, rat α7 nAChR in Xenopus oocytes; assay type: cell-based; details: read-out: IC50 (95% CI), rα7, −70 mV, 200 μM ACh pulse, 5 min pre-incubation with toxin, n = 3 (RgIA), 11 (RgIA[11r])
human α7 nAChRs = human α7 nAChRs (Homo sapiens, UniProt P36544); test: Two-electrode voltage clamp, inhibition of ACh-evoked currents, human α7 nAChR in Xenopus oocytes; assay type: cell-based; details: read-out: IC50 (95% CI), hα7, −70 mV, 200 μM ACh pulse, 5 min pre-incubation with toxin, n = 4 (RgIA), 7 (RgIA[11r])
[1] = Analytical RP-UPLC retention time as measure of hydrophilicity; details: chromatographic, ACQUITY UPLC BEH C18 (1.7 µm, 2.1 × 50 mm); buffer A 0.05% TFA in water, buffer B 90% aqueous acetonitrile; linear gradient, 0.5 mL/min; UV 214 nm; folded peptide
Serum stability assay = details: human serum from male AB plasma, pre-incubated 15 min at 37 °C, peptide 0.1 mg/mL, sampling 0–480 min, urea/TCA work-up, RP-UPLC peak area vs 0 min, n = 6
rat α3β2 nAChR = rat α3β2 nAChR (Rattus norvegicus, UniProt P04757+P12390); test: Two-electrode voltage clamp, rat α3β2 nAChR in Xenopus oocytes; details: 10 μM peptide, n = 3–6
rat α4β4 nAChR = rat α4β4 nAChR (Rattus norvegicus, UniProt P09483+P12392); test: Two-electrode voltage clamp, rat α4β4 nAChR in Xenopus oocytes; details: 10 μM peptide, n = 3–6
rat α3β4 nAChR = rat α3β4 nAChR (Rattus norvegicus, UniProt P04757+P12392); test: Two-electrode voltage clamp, rat α3β4 nAChR in Xenopus oocytes; details: 10 μM peptide, n = 3–6
rat α4β2 nAChR = rat α4β2 nAChR (Rattus norvegicus, UniProt P09483+P12390); test: Two-electrode voltage clamp, rat α4β2 nAChR in Xenopus oocytes; details: 10 μM peptide, n = 3–6
rat α2β4 nAChR = rat α2β4 nAChR (Rattus norvegicus, UniProt P12389+P12392); test: Two-electrode voltage clamp, rat α2β4 nAChR in Xenopus oocytes; details: 10 μM peptide, n = 3–6
rat α6/α3β4 nAChR = rat α6/α3β4 nAChR (Rattus norvegicus, UniProt P04757+P12392+P43143); test: Two-electrode voltage clamp, rat α6/α3β4 nAChR in Xenopus oocytes; details: 10 μM peptide, n = 3–6
mouse α1β1δγ nAChR = test: Two-electrode voltage clamp, mouse α1β1δγ nAChR in Xenopus oocytes; details: 10 μM peptide, n = 3–6

N=C(N)NCCC[C@H](NC(=O)[C@@H]1CSSC[C@@H]2NC(=O)[C@@H](NC(=O)CN)CSSC[C@H](NC(=O)[C@H](CCCNC(=N)N)NC(=O)[C@@H]3CCCN3C(=O)[C@H](CC(=O)O)NC(=O)[C@H](CO)NC2=O)C(=O)N[C@@H](CCCNC(=N)N)C(=O)N[C@@H](Cc2ccc(O)cc2)C(=O)N[C@H](CCCNC(=N)N)C(=O)N1)C(=O)O
IC50 (rat α7 nAChRs): 163 nM
IC50 (human α7 nAChRs): 463 nM
retention time (analytical RP-UPLC), read as hydrophilicity [1]: 1.717 min
time to complete degradation in human serum (Serum stability assay): ≤ 30 min
inhibition of ACh-evoked currents (rat α3β2 nAChR): below 50%
inhibition of ACh-evoked currents (rat α4β4 nAChR): below 50%
inhibition of ACh-evoked currents (rat α3β4 nAChR): below 50%
inhibition of ACh-evoked currents (rat α4β2 nAChR): below 50%
inhibition of ACh-evoked currents (rat α2β4 nAChR): below 50%
inhibition of ACh-evoked currents (rat α6/α3β4 nAChR): below 50%
inhibition of ACh-evoked currents (mouse α1β1δγ nAChR): below 50%
